# ChEMBL document CHEMBL3988442, “University of Dundee, Small-Polar-MMV Screening Library” (2021)
# Only a part is listed here, and it is no random draw.
# Tested on: Toxoplasma gondii
# Assay: In vitro enzyme assay to detect hydrolysis of chlorophenol red-beta-D-[…] directly proportional to the number of Toxoplasma stably expressing beta-galactosidase
# Assay type: functional, organism-based
# Set-up: scale not given: in the data most compounds retested in dose-response had high values
# Details: 50 µM
structure (smiles),measurement,value
NC(CF)c1ccc(F)cc1 (stereo unspecified),Percent Effect,-1.87%
